Results of unrelated studies side by side (data: NIAID ChemDB).

Common to all: tests in culture; organism: HIV-1; cell line: MT-2; measure: EC50

An empty or dashed field is not shown. ECn: concentration that inhibits the pathogen or its effect by n%. Conditions beyond the fields shown may differ between rows.

smiles,strain,mutations,method,result
Cc1ccc(S(=O)(=O)N(CC(C)C)C[C@@H](O)[C@H](Cc2ccccc2)NC(=O)O[C@H]2CO[C@H]3OCC[C@H]32)cc1,IIIB,D437N L441P,p24 / ELISA,0.008 µM
O=C(C(=O)N1CCC(=C2c3ccc(Cl)cc3CCc3cccnc32)CC1)c1c[nH]c2c(Br)ncc(F)c12,LAI,-,luciferase / reporter gene / single cycle,>0.5 µM
Cc1cn([C@H]2C[C@H](N=[N+]=[N-])[C@@H](CO)O2)c(=O)[nH]c1=O,-,RT-Q151M,cytopathic effect / MTT,2.4 µM
O=c1[nH]cnc2c1ncn2[C@H]1CC[C@@H](CO)O1,NL4-3:IN7-3),-,-,0.5 µM
COC(=O)CCCCCN1C(=O)N(CCCCCC(=O)OC)[C@H](Cc2ccccc2)[C@H](O)[C@@H](O)[C@H]1Cc1ccccc1,-,-,-,<30.9 µM
CC[C@H](C)[C@H](NC(=O)Cc1ccccn1)C(=O)N[C@@H](Cc1ccccc1)[C@@H](O)[C@H](O)[C@H](Cc1ccccc1)NC(=O)[C@@H](NC(=O)Cc1ccccn1)[C@@H](C)CC,RF,-,plaque count / virus yield,<0.9 µg/mL
Nc1nc2c(ncn2[C@H]2CC[C@H](CO)O2)c(=O)[nH]1,IIIB,-,cytopathic effect / MTT,>100 µM
CC(C)(C)NC(=O)[C@@H]1C[C@@H]2CCCC[C@@H]2CN1C[C@@H](O)[C@H](Cc1ccccc1)NC(=O)[C@H](CC(N)=O)NC(=O)c1ccc2ccccc2n1,MN,-,RT activity,0.003 µM
Cc1ccnc2c1NC(=O)c1cccnc1N2C1CC1,Nevirapine-resistant (RT Y181C),-,cytopathic effect / neutral red,>1.25 µM
Nc1nc(=O)n([C@@H]2CS[C@H](CO)O2)cc1F,IIIB,-,-,0.6 µM
Nc1nc2c(ncn2[C@H]2CO[C@@H](CO)O2)c(=O)[nH]1,LAI,RT-D67N K70R T215Y K219Q K65R,p24,1.4 µM
Nc1nc(=O)n([C@@H]2CC[C@H](CO)O2)cc1F,IIIB,-,-,0.45 µM
Nc1ccn([C@H]2CC[C@@H](CO)O2)c(=O)n1,H112-2,-,cytopathic effect / MTT,0.32 µM
Cc1cn([C@H]2C[C@H](N=[N+]=[N-])[C@@H](CO)O2)c(=O)[nH]c1=O,LAI,RT-D67N K70R T215Y K219Q,p24,0.14 µM
COCCNC(=O)[C@@H](NC(=O)[C@H](Cc1ccc(OC)c(OC)c1OC)C[C@H](O)[C@H](Cc1ccccc1)NC(=O)OC(C)(C)C)C(C)C,MN,-,RT activity,0.006 µM
O=C(O)P(=O)(O)O,LAI,RT-K65R,p24,66.3 µM
CC[C@H](C)[C@H](NC(=O)c1ccccc1SSc1ccccc1C(=O)N[C@H](C(=O)O)[C@@H](C)CC)C(=O)O,A17,RT-K103N Y181C,p24 / RT activity,5.6 µM
O=C(Cc1cccnc1)NCCCCCN1C(=O)N(CCCCCNC(=O)Cc2cccnc2)[C@H](Cc2ccccc2)[C@H](O)[C@@H](O)[C@H]1Cc1ccccc1,-,-,-,<3.129 µM
Nc1nc(N)c2ncn([C@@H]3CC[C@H](CO)O3)c2n1,IIIB,-,cytopathic effect / MTT,>100 µM
Cc1cn([C@H]2C=C[C@@H](CO)O2)c(=O)[nH]c1=O,-,RT-Q151M A62V,cytopathic effect / MTT,>50 µM
Nc1nc(Cl)nc2c1ncn2[C@@H]1CC[C@H](CO)O1,IIIB,-,cytopathic effect / MTT,>100 µM
CCCCC#CCSc1ccccc1OC(C)=O,184V lamivudine-resistant (RT M184V),RT-M184V,-,5 µM
CC(C)CN(C[C@@H](O)[C@H](Cc1ccccc1)NC(=O)[C@@H](NC(=O)CNCc1cccc(F)c1)C(C)(C)C)S(=O)(=O)c1ccc(N)cc1,RF,-,-,<0.0057 µM
Cc1cn([C@H]2C[C@H](N=[N+]=[N-])[C@@H](CO)O2)c(=O)[nH]c1=O,NL4-3,-,cytopathic effect / neutral red,0.0183 µM
COC(=O)N[C@H](C(=O)N[C@@H](Cc1ccccc1)[C@@H](O)CN(Cc1ccc(-c2ccccn2)cc1)NC(=O)[C@@H](NC(=O)OC)C(C)(C)C)C(C)(C)C,IIIB,8374-P62 GS-8374-resistant,ATP,0.0163 µM
Nc1ncnc2c1ncn2[C@H]1CC[C@H](CO)S1,IIIB,-,cytopathic effect / MTT,>100 µM
Nc1nc(=O)n([C@@H]2CC[C@H](CO)O2)cc1F,G910-6 AZT-resistant (RT D67N K70R T215Y K219Q),RT-D67N K70R T215Y K219Q,RT activity,0.95 µM
O=C1N(CCCCCO)[C@H](Cc2ccccc2)[C@H](O)[C@@H](O)[C@@H](Cc2ccccc2)N1Cc1cccc(CO)c1,-,-,-,<0.076 µM
Nc1ccn([C@@H]2CC[C@H](CO)O2)c(=O)n1,G910-6 AZT-resistant (RT D67N K70R T215Y K219Q),RT-D67N K70R T215Y K219Q,-,0.58 µM
CC(C)(C)NC(=O)[C@@H]1CN(Cc2cccnc2)CCN1C[C@@H](O)C[C@@H](Cc1ccccc1)C(=O)N[C@H]1c2ccccc2C[C@H]1O,NL4-3,-,cytopathic effect / neutral red,0.0063 µM
Cc1ccccc1CNC(=O)[C@H]1N(C(=O)[C@@H](O)[C@H](Cc2ccccc2)NC(=O)c2cccc(O)c2C)CSC1(C)C,GAG-L75 H219 V390 JE-2147-resistant,Gag R409K PR M46I I74V V82I I84V,cytopathic effect / MTT,>0.5 µM
Cc1cn([C@H]2C[C@H](N=[N+]=[N-])[C@@H](CO)O2)c(=O)[nH]c1=O,NL4-3:IN7-3),-,-,0.03 µM
O=C1N(CCCCCO)[C@H](Cc2ccccc2)[C@H](O)[C@@H](O)[C@@H](Cc2ccccc2)N1Cc1ccc2ccccc2c1,-,-,-,<0.199 µM
Nc1nc2c(ncn2[C@@H]2CC[C@H](CO)O2)c(=O)[nH]1,IIIB,-,cytopathic effect / MTT,>100 µM
Cc1cn([C@H]2C=C[C@@H](CO)O2)c(=O)[nH]c1=O,IIIB,-,-,6 µM
Nc1nc(N)c2ncn([C@H]3CC[C@H](CO)S3)c2n1,IIIB,-,cytopathic effect / MTT,>100 µM
Cc1cn([C@H]2C[C@H](N=[N+]=[N-])[C@@H](CO)O2)c(=O)[nH]c1=O,IIIB,K112M K113E V128I,p24 / ELISA,0.153 µM
Nc1ccn([C@@H]2CO[C@H](CO)S2)c(=O)n1,HXB2D,-,RT activity,3 µM
Nc1nc2ncn([C@H]3CC[C@H](CO)O3)c2c(=O)[nH]1,IIIB,-,cytopathic effect / MTT,>100 µM